Anti-infective test results gathered from many reports (values: NIAID ChemDB through PubChem).

All rows: host cell toxicity; measure: CC50

CCn: concentration that lowers growth or viability of the cells by n%. An empty or dashed field is not shown. Conditions beyond the fields shown may differ between rows.

COc1cnc(CS(=O)c2nc3ccc(C)cc3[nH]2)c(C)c1OC ; cell line: HEK293T ; method: MTT ; result: 125 µM
O=C1NC(=Nc2ccccc2O)S/C1=C/c1ccc(O)c(O)c1 ; cell line: HOS ; result: 34 µM
C[C@H]1COc2c(N3CCC4(CC3)OCCO4)c(F)c(N)c3c(=O)c(C(=O)O)cn1c23 ; cell line: Mammalian Vero cells ; method: MTT ; result: >149 µM
O=C(CCc1ccc(F)c(F)c1)NCCc1ccc2c(n1)NCCC2 ; cell line: PBMC ; result: 50 µM
Cc1ccc2c(c1)C(O)(c1ccccc1)C(N)=N2 ; cell line: Erythrocyte ; result: >168 µM
CN(C)c1nc2cc(Cl)c(Cl)cc2n1COC(CO)CO ; cell line: HFF ; method: visual reading ; result: >100 µM
Cc1cc(OCCCOc2ccc(-c3cccc(-c4nn[nH]n4)c3)cc2)cnc1CS(=O)c1nc2ccccc2[nH]1 ; cell line: HEK293T ; method: MTT ; result: 75 µM
Cc1cn([C@H]2C[C@H](N=[N+]=[N-])[C@@H](COP(=O)(OC[C@H]3O[C@@H](n4cc(C)c(=O)[nH]c4=O)C[C@@H]3N=[N+]=[N-])OCC(F)(F)F)O2)c(=O)[nH]c1=O ; cell line: JM ; result: >500 µM
Nc1ccn(C[C@H]2COP(=O)(O)CO2)c(=O)n1 ; cell line: MA-104 ; result: 850 µM
COc1ccc2nc(Cl)c(/C=C/C(=O)c3cc4ccccc4o3)cc2c1 ; cell line: VERO ; method: MTS ; result: 13.7 µM
N#CC(N)=NCCCCCC[NH+]=C(N)NC(N)=NCCCCCCN=C(N)NC(N)=[NH+]CCCCCCN.[Cl-].[Cl-] ; cell line: P4-CCR5 ; method: MTT ; result: 90 µg/mL
Cc1ccc(Nc2s[nH]c(=O)c2C#N)cc1 ; cell line: Huh7 ; result: >50 µM
Nc1cccc(CCNC(=O)NCc2ccc(Cl)c(Cl)c2)n1 ; cell line: PBMC ; result: 50 µM
CC(=O)O[C@H]1C[C@H](n2cc(C)c(=O)[nH]c2=O)O[C@@H]1CO ; cell line: JM ; result: 1000 µM
CC(C)[C@@H]1NC(=O)[C@@H](C(C)C)OC(=O)[C@H](C(C)C)N(C)C(=O)[C@@H](C(C)C)OC(=O)[C@H](C(C)C)N(C)C(=O)[C@@H](C(C)C)OC1=O ; cell line: BC-cells ; method: absorbance ; result: 6.36 µM
N#Cc1c(Nc2ccc(Br)c(Cl)c2)s[nH]c1=O ; cell line: Huh7 ; result: >50 µM
CC(C)Oc1ccccc1C1(O)C(N)=Nc2ccc(Cl)cc21 ; cell line: Erythrocyte ; result: >120 µM
COc1ccc2nc(Cl)c(/C=C/C(=O)c3ccc(Br)s3)cc2c1 ; cell line: CEM ; method: MTS ; result: 31.6 µM
Nc1nc2cc(Cl)c(Cl)cc2n1COC(CO)CO ; cell line: HFF ; method: visual reading ; result: >100 µM
C[C@H]1COc2c(N3CCC(n4c(=O)[nH]c5cc(Cl)ccc54)CC3)c(F)cc3c(=O)c(C(=O)O)cn1c23 ; cell line: Mammalian Vero cells ; method: MTT ; result: >122 µM
CC(CCCN1CCN(c2ccncc2)C1=O)COc1ccc(-c2ccc(Cl)cc2)cc1 ; cell line: RD ; result: >25 µM
O=C1Cn2c(nc3c(c2=S)C2=C(CCC/C2=C\c2ccncc2)C(c2ccncc2)S3)S1 ; cell line: KB ; method: MTT ; result: 42.5 µM
CC1CN(c2c(F)c([N+](=O)[O-])c3c(=O)c(C(=O)O)cn4c3c2OCC4C)CC(C)O1 ; cell line: Vero mammalian cells ; method: MTT ; result: 148 µM
CCCO/N=C/c1ccc(OCCC2CCN(c3ccc(Cl)nn3)CC2)cc1 ; cell line: MRC-5 ; method: neutral red ; result: >0.1 µg/mL
Cc1cc(COc2ccc(-c3cccc(-c4nn[nH]n4)c3)cc2)cnc1CS(=O)c1nc2ccccc2[nH]1 ; cell line: HEK293T ; method: MTT ; result: 125 µM
CC(C)C(CCOc1ccc(-c2ccc(Cl)cc2)cc1)CCN1CCN(c2ccncc2)C1=O ; cell line: RD ; result: >25 µM
OCC(CO)OCn1c(=S)[nH]c2c(Cl)cc(Cl)cc21 ; cell line: KB ; result: >100 µM
COC(=O)c1cccc(-c2ccc(OCc3cnc(CS(=O)c4nc5ccccc5[nH]4)c(C)c3)cc2)c1 ; cell line: HEK293T ; method: MTT ; result: 30 µM
CCO/N=C/c1ccc(OCCCC2CCN(c3ccc(Cl)nn3)CC2)cc1 ; cell line: MRC-5 ; method: visual reading ; result: >1 µg/mL
Nc1nc2cc(Cl)c(Cl)cc2n1COCCO ; cell line: KB ; result: >100 µM
CCO/N=C/c1ccc(OCCCCN(C)c2ccc(Cl)nn2)cc1 ; cell line: MRC-5 ; method: neutral red ; result: >0.5 µg/mL
COP(=O)(c1cc(C)cc(CCC#N)c1)c1c(C(N)=O)[nH]c2ccc(Cl)cc12 ; cell line: MOLT-4 ; method: MTS ; result: 14.8 µM
NC1=Nc2ccc(Cl)cc2C1(O)c1cccc2ccccc12 ; cell line: Erythrocyte ; result: >129 µM
CCOC1N=C2C3=C(N=C(C)N2N1c1ccccc1)SC(c1ccncc1)C1=C3/C(=C/c2ccncc2)CCC1 ; cell line: MGC-803 ; method: MTT ; result: 12.9 µM
C[C@H]1COc2c(N3CCC(n4c(=O)[nH]c5cc(Cl)ccc54)CC3)c(F)c([N+](=O)[O-])c3c(=O)c(C(=O)O)cn1c23 ; cell line: Mammalian Vero cells ; method: MTT ; result: 112 µM
COc1cc(OC)c(NC(=O)NCCc2ccc3c(n2)NCCC3)cc1Cl ; cell line: PBMC ; result: 1.2 µM
Cc1ccc2nc(Cl)c(/C=C/C(=O)c3sccc3Cl)cc2c1 ; cell line: CEM ; method: MTS ; result: 31.6 µM
CC1COc2c(N3CCC4(CC3)OCCO4)c(F)c([N+](=O)[O-])c3c(=O)c(C(=O)O)cn1c23 ; cell line: Mammalian Vero cells ; method: MTT ; result: 139 µM
CO[C@H]1C[C@H](n2cc(C)c(=O)[nH]c2=O)O[C@@H]1COP(=O)(OCC(Cl)Cl)OC[C@H]1O[C@@H](n2cc(C)c(=O)[nH]c2=O)C[C@@H]1OC ; cell line: JM ; result: >1000 µM
OCCOCn1c(Br)nc2c(Cl)c(Cl)ccc21 ; cell line: HFF ; method: visual reading ; result: >100 µM
COC(=O)c1cccc(-c2ccc(COc3cnc(CS(=O)c4nc5ccccc5[nH]4)c(C)c3)cc2)c1 ; cell line: HEK293T ; method: MTT ; result: 10 µM
CCO/N=C/c1ccc(OCCC2CCN(c3ccc(Cl)nn3)CC2)c(C)c1 ; cell line: MRC-5 ; method: visual reading ; result: >1 µg/mL
CC(CCCOc1ccc(-c2ccc(Cl)cc2)cc1)CN1CCN(c2ccncc2)C1=O ; cell line: RD ; result: >25 µM
Nc1ncnc2c1ncn2[C@@H]1O[C@H](CO)[C@@H](O)[C@@H]1O ; cell line: HEP II ; result: 320 µg/mL
CN(C(=O)NCCc1ccc2c(n1)NCCC2)c1ccccc1 ; cell line: PBMC ; result: 50 µM
COc1cnc(OC)c(C2(O)C(N)=Nc3ccc(Cl)cc32)c1 ; cell line: Kidney epithelial cells ; result: >195 µM
O=C1N(Cc2cccc(COc3ccc(-c4ccc(Cl)cc4)cc3)n2)CCN1c1ccncc1 ; cell line: RD ; result: >25 µM
Nc1c(C(=O)c2ccccc2)[nH]c2c1C1=C(CCC/C1=C\c1ccncc1)C(c1ccncc1)S2 ; cell line: CNE-2 ; method: MTT ; result: >50 µM
N#Cc1c(Nc2ccc(Cl)c(C(F)(F)F)c2)s[nH]c1=O ; cell line: Huh7 ; result: >50 µM
CO/N=C/c1cc(C)c(OCCC2CCN(c3ccc(C)nn3)CC2)cc1C ; cell line: MRC-5 ; method: neutral red ; result: >0.1 µg/mL
Cc1ccc2nc(Cl)c(/C=C/C(=O)c3cc(Cl)sc3Cl)cc2c1 ; cell line: VERO ; method: MTS ; result: 16.9 µM
Cc1nc2c(c(=N)n1Nc1ccccc1)C1=C(CCC/C1=C\c1ccncc1)C(c1ccncc1)S2 ; cell line: MGC-803 ; method: MTT ; result: 11.9 µM
COC(=O)c1cccc(Nc2s[nH]c(=O)c2C#N)c1 ; cell line: Huh7 ; result: >50 µM
Nc1nc2c(Cl)c(Cl)ccc2n1COC(CO)CO ; cell line: HFF ; method: visual reading ; result: >100 µM
Cc1ccc(C(=O)Nc2ccc(S(=O)(=O)O)c3cc(S(=O)(=O)O)cc(S(=O)(=O)O)c23)cc1NC(=O)c1cccc(NC(=O)Nc2cccc(C(=O)Nc3cc(C(=O)Nc4ccc(S(=O)(=O)O)c5cc(S(=O)(=O)O)cc(S(=O)(=O)O)c45)ccc3C)c2)c1 ; cell line: ATH8 ; result: >50 µg/mL
CN(C(=O)CCc1ccc2c(n1)NCCC2)c1ccc(Cl)c(Cl)c1 ; cell line: PBMC ; result: 13 µM
CCO/N=C/c1ccc(OCCC2CCN(c3ccc(OCC(F)(F)F)nn3)CC2)cc1 ; cell line: MRC-5 ; method: visual reading ; result: >1 µg/mL
N#Cc1c(NC2CCc3ccccc32)s[nH]c1=O ; cell line: Huh7 ; result: <50 µM
Cc1c[nH]c2c1C(c1ccc(O)c(O)c1)C(C#N)=C(N)O2 ; cell line: HOS ; result: 49 µM
Cc1cc(COc2ccc(-c3cccc(C#N)c3)cc2)cnc1CS(=O)c1nc2ccccc2[nH]1 ; cell line: HEK293T ; method: MTT ; result: 6 µM
Nc1nc2ncn(/C=C3/C(F)C3(CO)CO)c2c(=O)[nH]1 ; cell line: Akata ; result: >100 µM
COC(=O)c1ccc(OCCCOc2cnc(CS(=O)c3nc4ccccc4[nH]3)c(C)c2)cc1OC ; cell line: HEK293T ; method: MTT ; result: 10 µM
Clc1ccc([C@@H](CCn2ccnc2)Oc2ccccc2)cc1 ; cell line: Human histiocytic lymphoma U937 cells ; result: 209 µM
N#Cc1c(Nc2cc(Br)cc(C(F)(F)F)c2)s[nH]c1=O ; cell line: Huh7 ; result: >50 µM
Cc1ccc2nc(Cl)c(/C=C/C(=O)c3cc(C)oc3C)cc2c1 ; cell line: CEM ; method: MTS ; result: >100 µM
Nc1nc2c(Cl)c(Cl)ccc2n1COCCO ; cell line: KB ; result: >100 µM
Cc1cc(=O)[nH]c2c1ccc1ncc(C(=O)O[C@@H]3CC4CCC3(C)C4(C)C)c(C)c12 ; cell line: CAKI-1 ; result: 4.3 µg/mL
CC/C(=N\OC)c1ccc(OCCC2CCN(c3ccc(Cl)nn3)CC2)cc1 ; cell line: MRC-5 ; method: visual reading ; result: >1 µg/mL

The last 8 rows once more:

compound | cell line | method | result
Nc1nc2ncn(/C=C3/C(F)C3(CO)CO)c2c(=O)[nH]1 | Akata | - | >100 µM
COC(=O)c1ccc(OCCCOc2cnc(CS(=O)c3nc4ccccc4[nH]3)c(C)c2)cc1OC | HEK293T | MTT | 10 µM
Clc1ccc([C@@H](CCn2ccnc2)Oc2ccccc2)cc1 | Human histiocytic lymphoma U937 cells | - | 209 µM
N#Cc1c(Nc2cc(Br)cc(C(F)(F)F)c2)s[nH]c1=O | Huh7 | - | >50 µM
Cc1ccc2nc(Cl)c(/C=C/C(=O)c3cc(C)oc3C)cc2c1 | CEM | MTS | >100 µM
Nc1nc2c(Cl)c(Cl)ccc2n1COCCO | KB | - | >100 µM
Cc1cc(=O)[nH]c2c1ccc1ncc(C(=O)O[C@@H]3CC4CCC3(C)C4(C)C)c(C)c12 | CAKI-1 | - | 4.3 µg/mL
CC/C(=N\OC)c1ccc(OCCC2CCN(c3ccc(Cl)nn3)CC2)cc1 | MRC-5 | visual reading | >1 µg/mL